Anti-infective test results gathered from many reports (values: NIAID ChemDB through PubChem).

Shared fields: growth or infection tests; species: Mycobacterium tuberculosis

MIC50, MIC90 and the like: level of inhibition, or share of isolates inhibited.

smiles	strain	cell line	read by	endpoint	tested at	value
CCn1cc(C(=O)O)c(=O)c2cc(F)c(N3CCN(Cn4c(O)c(N=NC(=O)c5ccncc5)c5cc(Cl)ccc54)CC3)cc21	H37Rv		BACTEC	EC50		<12.5 µg/mL
Cc1cc(Cl)ccc1NC(=O)C(=O)Cc1occc(=O)c1O	H37Rv		resazurin	MIC bound		>6.25 µg/mL
CC(C)(C)NCCNc1cc(C(F)(F)F)nc2c(C(F)(F)F)cccc12	H37Rv			inhibition	6.25 µg/mL	4%
Cc1c(NC(=O)C(C)Sc2nnc(-c3ccco3)n2C2CCCCC2)c(=O)n(-c2ccccc2)n1C	H37Rv		resazurin	MIC		>6.25 µg/mL
CN(C)CCCN1c2ccccc2Sc2ccc(Cl)cc21	ST. 5			MIC		12.5 µg/mL
CN(C)C(=O)Sc1ccc(-c2c(-c3ccccc3)oc3ccc4ccccc4c23)cc1	H37Rv		BACTEC	inhibition	12.5 µg/mL	98%
O=C(O)c1ccccc1O	7800			inhibition	20 µM	0%
CC(=O)Nc1ccc(/C=N/NC(N)=S)cc1	Frankfurt			MIC		0.1 µg/mL
CN(C)CCCNc1ccc(O)c2c1C(=O)c1ccccc1C2=O	H37Rv		BACTEC	inhibition	12.5 µg/mL	38%
CCOC(=O)c1ccc2c(c1)nc(-c1ccc(O)c(OC)c1)n2CCN1CCCOC1	H37Rv		resazurin / fluorescence	EC90		55.82 µM
Cc1[nH]n(-c2ccccc2)c(=O)c1N=Nc1ccc(C(=O)N/N=C/c2ccc(F)cc2)cc1	H37Rv			EC50		>12.5 µg/mL
c1ccc(CCN2CCN([C@@H](Cc3ccccc3)CN3CCCC3CN3CCNC[C@H]3Cc3ccccc3)C[C@@H]2Cc2ccccc2)cc1	H37Rv		broth dilution	MIC		3.9 µg/mL
Cc1[nH]n(-c2ccccc2)c(=O)c1N=Nc1ccc(-c2n[nH]c(=S)o2)cc1	H37Rv			inhibition	12.5 µg/mL	91%
COc1cc2c(cc1OC)C1CC(CC(N)=O)(C(N)=O)CCN1CC2	H37Rv		BACTEC	MIC bound		>12.5 µg/mL
CCC1CN(c2c(F)cc3c(=O)c(C(=O)O)cn(C4CC4)c3c2OC)CCN1	Isolate TN1626			MIC		0.1 µg/mL
OCCN1CCN(CC/C=C2/c3ccccc3Sc3ccc(C(F)(F)F)cc32)CC1	ST. 5			MIC		6.25 µg/mL
O=C(NNC(=O)c1ccc(Cl)cc1Cl)c1ccncc1	H37Rv (ATCC 27294)			MIC		15 µg/mL
COc1ccc(/C=N/NC(=O)c2c(C)c[nH]c2C)cc1	H37Rv		BACTEC	EC50		>6.25 µg/mL
Cc1c(NC(=O)C(C)Sc2nnc(-c3ccco3)n2-c2ccccc2)c(=O)n(-c2ccccc2)n1C	H37Rv		resazurin	MIC		>6.25 µg/mL
CCn1cc(C(=O)O)c(=O)c2cc(F)c(N3CCN(Cn4c(O)c(N=NC(N)=S)c5cc(Cl)ccc54)CC3)cc21	H37Rv		BACTEC	inhibition	12.5 µg/mL	97%
C=C(C)[C@@H]1CC[C@]2(C(=O)O)CC[C@]3(C)[C@H](CC[C@@H]4[C@@]5(C)CC[C@H](O)C(C)(C)[C@@H]5CC[C@]43C)[C@@H]12				MIC		25 µg/mL
CCOC(=O)c1ccc2c(c1)nc(-c1ccc(O)cc1)n2CCN1CCCC1=O	H37Rv		resazurin / fluorescence	EC50		>100 µM
O=C(Nc1cccc2c1C(=O)c1cccc(Nc3cccc4c3C(=O)c3cccc(NC(=O)c5ccccc5)c3C4=O)c1C2=O)c1ccccc1	H37Rv		BACTEC	MIC bound		>12.5 µg/mL
CCOC(=O)c1cc(-c2ccc(OC)cc2)n(CCC(=O)NN)c1C	H37Rv		BACTEC	inhibition	6.25 µg/mL	0%
Cc1[nH]n(CCO)c(=O)c1N=Nc1ccc(-c2n[nH]c(=S)n2-c2ccccc2)cc1	H37Rv			EC50		>12.5 µg/mL
c1ccc(CCN2CCN([C@@H](Cc3ccccc3)CN3CCCC3CN3CCNC[C@@H]3Cc3ccccc3)C[C@@H]2Cc2ccccc2)cc1	H37Rv		broth dilution	MIC		2 µg/mL
CCOC(=O)c1ccc2c(c1)nc(-c1ccc(O)cc1)n2CCN1CCCOC1	H37Rv		resazurin / fluorescence	EC50		>100 µM
NC(=S)c1nnn(Cc2ccccc2)c1N	H37Rv		resazurin	MIC90		125 µM
CCCCCCCCCCCCOCc1cn([C@H]2C[C@H](N)[C@@H](CO)O2)c(=O)[nH]c1=O	MS-115	VERO Cell line		MIC99		20 µg/mL
CCCCn1c(SCC(=O)Nc2c(C)n(C)n(-c3ccccc3)c2=O)nnc1-c1ccco1	H37Rv		resazurin	inhibition	6.25 µg/mL	inactive
Cc1[nH][nH]c(=O)c1N=Nc1ccc(-c2n[nH]c(=S)n2-c2ccccc2)cc1	H37Rv			inhibition	12.5 µg/mL	0%
N#CC1=C([N+](=O)[O-])NC2OC[C@@H](OCc3ccc(OC(F)(F)F)cc3)CN12	F420-		broth dilution	MIC		>100 µM
O=C(CNC(=O)Nc1n[nH]c(=S)s1)N/N=C/c1ccccc1O	H37Rv		BACTEC	MIC bound		>12.5 µg/mL
CCOC(=O)c1[nH]c(/C=N/NC(=O)c2c(C)c[nH]c2C)c(C(=O)OCC)c1C	H37Rv		BACTEC	EC50		<6.25 µg/mL
Cc1cc(O)c(C=O)c2c1C(=O)Oc1c(CO)c(O)c3c(c1O2)C(O)OC3=O	H37Rv		BACTEC	MIC		≥12.8 µg/mL
FC(F)(F)c1cc(NCCNc2cc(C(F)(F)F)nc3c(C(F)(F)F)cccc23)c2cccc(C(F)(F)F)c2n1	H37Rv			MIC		>6.25 µg/mL
C=C(C)[C@@H]1CC[C@]2(C(=O)O)CC[C@]3(C)C(CCC4[C@@]5(C)[C@H](C=O)[C@@H](O)C(C)(C)[C@@H]5CC[C@]43C)C12				MIC		50 µg/mL
O=C(NNC(=O)c1cccc(Cl)c1Cl)c1ccncc1	H37Rv (ATCC 27294)			MIC		15 µg/mL
FC(F)(F)c1cc(NCCCCCCCCCNc2cc(C(F)(F)F)nc3c(C(F)(F)F)cccc23)c2cccc(C(F)(F)F)c2n1	H37Rv			MIC		>6.25 µg/mL
O=C(NNC(=O)c1ccc(Cl)c([N+](=O)[O-])c1)c1ccncc1	H37Rv (ATCC 27294)			MIC		0.5 µg/mL
CCn1c(O)c(C(=O)Nc2cccs2)c(=O)n(CC)c1=S	H37Rv		BACTEC	inhibition	12.5 µg/mL	100%
C=C(C)[C@@H]1CC[C@]2(C(=O)O)CC[C@]3(C)C(CCC4[C@@]5(C)C[C@@H](OC(=O)/C=C/c6ccc(O)cc6)[C@H](O)C(C)(C)[C@@H]5CC[C@]43C)C12				MIC		12.5 µg/mL
Cc1[nH]n(CCO)c(=O)c1N=Nc1ccc(-c2n[nH]c(=S)o2)cc1	H37Rv			EC50		>12.5 µg/mL
CCCCCCCNc1cnc(C(=O)NCc2ccccc2)cn1	H37Rv		resazurin	MIC		3.13 µg/mL
Cc1ccc(-n2c(SCC(=O)Nc3c(C)n(C)n(-c4ccccc4)c3=O)nnc2-c2ccco2)cc1	H37Rv		resazurin	MIC		>6.25 µg/mL
FC(F)(F)c1cc(NCCCNc2cc(C(F)(F)F)nc3c(C(F)(F)F)cccc23)c2cccc(C(F)(F)F)c2n1	H37Rv			MIC		>6.25 µg/mL
O=C(O)c1cccc2c1Oc1c(cccc1C(=O)O)S2	H37Rv		BACTEC	inhibition	12.5 µg/mL	15%
O=c1cc(-c2ccccc2)c2cc(Cl)ccc2o1	H37Rv		low oxygen	MIC90		>100 µg/mL
CCCCCCCCCCc1cn(Cc2cn([C@H]3C[C@H](O)[C@@H](CO)O3)c(=O)nc2N)nn1	MS-115	VERO Cell line		MIC99		50 µg/mL
CC1=NN(C(=O)CC(=O)Nc2ccccc2F)C(=O)C1N=Nc1ccccc1[N+](=O)[O-]	H37Rv		BACTEC	inhibition	12.5 µg/mL	19%
CCCCCCCCCCCCc1cn(Cc2cn([C@H]3C[C@H](O)[C@@H](CO)O3)c(=O)nc2N)nn1	MS-115	VERO Cell line		MIC99		10 µg/mL
CC1CCC(CN2CCN([C@@H](Cc3ccccc3)CN3CCCC3CN3CCNC[C@@H]3Cc3ccccc3)C[C@@H]2Cc2ccccc2)CC1	H37Rv		broth dilution	MIC		3.9 µg/mL
Cc1ncc(CO)c(C=O)c1O	H37Rv		resazurin	inhibition	6.25 µg/mL	1%
FC(F)(F)c1cc(NCCCCCNc2cc(C(F)(F)F)nc3c(C(F)(F)F)cccc23)c2cccc(C(F)(F)F)c2n1	H37Rv			inhibition	6.25 µg/mL	20%
NNc1n[nH]c(=O)c2cnccc12	H37Rv		BACTEC	MIC		≥12.5 µg/mL
Nc1ccc(C(=O)O)c(O)c1	BCG			MIC50		1.5 µg/mL
Cc1ccc(-n2c(SC(C)C(=O)Nc3c(C)n(C)n(-c4ccccc4)c3=O)nnc2-c2ccco2)cc1	H37Rv		resazurin	MIC		>6.25 µg/mL
CCOc1ccc(Nc2nc3c(s2)C(=O)c2ccccc2C3=O)cc1	H37Rv		BACTEC	inhibition	12.5 µg/mL	100%
Cc1c(NC(=O)CSc2nnc(-c3ccco3)n2-c2ccc(Br)cc2)c(=O)n(-c2ccccc2)n1C	H37Rv		resazurin	MIC		>6.25 µg/mL
CCOC(=O)c1c(C)c(-c2ccccc2)n(CC(=O)N/N=C/c2cc3ccccc3[nH]2)c1C	H37Rv		BACTEC	inhibition	6.25 µg/mL	6%
CCn1cc(C(=O)O)c(=O)c2cc(F)c(N3CCN(Cn4c(O)c(N=NC(N)=O)c5cc(Cl)ccc54)CC3)cc21	H37Rv		BACTEC	EC50		<12.5 µg/mL
CCOC(=O)c1cc(-c2ccc(-c3ccccc3)cc2)n(CC(=O)NN)c1C	H37Rv		BACTEC	inhibition	6.25 µg/mL	0%
COc1ccccc1N=N/C(=N\Nc1ccccc1OC)C(=O)Nc1ccccc1	H37Rv		BACTEC	inhibition	12.5 µg/mL	-32%
OCCN1CCN(CC/C=C2\c3ccccc3Sc3ccc(Cl)cc32)CC1	ST. 5			MIC		12.5 µg/mL
CCOC(=O)c1ccc2c(c1)nc(-c1ccc(OC)cc1)n2CCN1CCCC1=O	H37Rv		resazurin / fluorescence	MIC		>100 µM
S=c1sc(-c2ccccc2)nc2ccccc12	H37Rv		BACTEC	inhibition	12.5 µg/mL	28%
CCOC(=O)c1ccc2c(c1)nc(-c1ccc(O)c(OC)c1)n2CCN1CCCC1=O	H37Rv		resazurin / fluorescence	EC90		>100 µM
OCCN1CCN(CC/C=C2\c3ccccc3Sc3ccc(C(F)(F)F)cc32)CC1	ST. 5			MIC		6.25 µg/mL
NNC(=O)c1ccncc1	MDR-TB		agar	MIC		45.57 µM
O=C1O/C(=C(/C(=O)O)c2ccc(O)cc2)C(O)=C1c1cc2c3c(c(O)cc(C4=C(O)/C(=C(\C(=O)O)c5ccc(O)cc5)OC4=O)c3c1)OC2=O	H37Rv		BACTEC	MIC bound		>12.5 µg/mL
CCOC(=O)c1ccc2c(c1)nc(-c1cccc(-c3ccc(F)cc3)c1)n2CCN1CCCOC1	H37Rv		resazurin / fluorescence	MIC		>100 µM
O=C1OCC2OC(=O)c3cc(O)c(O)c(O)c3-c3c(O)c(O)c(O)c4c3C(=O)OC(C2OC(=O)c2cc(O)c(O)c(O)c2-c2c1cc(O)c(O)c2O)C1OC(=O)c2c-4c(O)c(O)c(O)c2[C@@H]1O	H37Rv		BACTEC	MIC bound		>12.5 µg/mL
CCCCCCCCCCCCc1cn(Cc2cn([C@H]3C[C@H](O)[C@@H](CO)O3)c(=O)[nH]c2=O)nn1	MS-115	VERO Cell line		MIC99		10 µg/mL
Cc1cc(/C=N/NC(N)=S)c(C)c2c1oc1ccccc12	H37Rv		BACTEC	inhibition	12.5 µg/mL	92%
O=C(NNC(=O)c1ccc([N+](=O)[O-])c([N+](=O)[O-])c1)c1ccncc1	H37Rv (ATCC 27294)			MIC		2 µg/mL
Cc1nc2ccc(NCCN(C)C)c3c(=O)c4ccccc4n1c23	H37Rv		BACTEC	MIC bound		≤12.5 µg/mL
CCOC(=O)c1cc(-c2ccccc2)[nH]c1CC(=O)N/N=C/c1c[nH]c2ccccc12	H37Rv		BACTEC	EC50		>6.25 µg/mL
Cc1cc2c(c3ncccc13)OCN(Cc1ccc(Cl)c(Cl)c1)C2	H37Rv			inhibition	6.25 µg/mL	98%
CCOC(=O)c1cc(-c2ccccc2)n(CC(=O)NN)c1C	H37Rv		BACTEC	inhibition	6.25 µg/mL	18%

The first 5 rows once more:

smiles	strain	cell line	read by	endpoint	tested at	value
CCn1cc(C(=O)O)c(=O)c2cc(F)c(N3CCN(Cn4c(O)c(N=NC(=O)c5ccncc5)c5cc(Cl)ccc54)CC3)cc21	H37Rv		BACTEC	EC50		<12.5 µg/mL
Cc1cc(Cl)ccc1NC(=O)C(=O)Cc1occc(=O)c1O	H37Rv		resazurin	MIC bound		>6.25 µg/mL
CC(C)(C)NCCNc1cc(C(F)(F)F)nc2c(C(F)(F)F)cccc12	H37Rv			inhibition	6.25 µg/mL	4%
Cc1c(NC(=O)C(C)Sc2nnc(-c3ccco3)n2C2CCCCC2)c(=O)n(-c2ccccc2)n1C	H37Rv		resazurin	MIC		>6.25 µg/mL
CN(C)CCCN1c2ccccc2Sc2ccc(Cl)cc21	ST. 5			MIC		12.5 µg/mL

Blank or dashed fields: not listed here. Neighbouring rows are from separate reports. For "inactive" no cut-off is given. MIC bound comes from a single tested concentration. Inhibition is in % at the dose shown (toxicity tests: loss of growth or viability). ECn: concentration that inhibits the pathogen or its effect by n%.